Laboratory results reported in PMC4257840 (Journal of Medicinal Chemistry, 2014).
Marks after values point to notes of the source that are not given here.

Tested on: nonsensitized rats challenged with a natural mixture of HDM allergens

CC(C)[C@H](NC(=O)[C@H](C)NC(=O)[C@H](Cc1ccccc1)NC(=O)c1ccccc1)C(=O)C(=O)NCC(=O)N1CC[N+](C)(C)CC1.O=C[O-] [Compound 52, 4-(2-{(S)-3-[(S)-2-((S)-2-Benzoylamino-3-phenyl-propionylamino)-propionylamino]-4-methyl-2-oxo-pentanoylamino}-acetyl)-1,1-dimethyl-piperazin-1-ium Formate]
reduction in innate BAL eosinophil response (intratracheal aerosol 6 h prior to challenge, ∼40 μg/kg, drug:target 50:1, mean ± SE, 10 animals): 65.6 ± 7.1 ^d % | endurance of action (protection from a single dose) (single intratracheal dose before HDM allergen challenge, BAL eosinophils): > 6 h
